Measured values reported in article PMC4942819 (Scientific Reports, 2016).

Tested on: DprE1
Assay: differential scanning calorimetry (DSC) of DprE1
Type: binding
Settings: difference to the pure protein

Q: With `C[C@H]1COC2(CCN(c3nc(=O)c4cc(C(F)(F)F)cc([N+](=O)[O-])c4s3)CC2)O1` [BTZ043] as the compound, how does the ΔTm read?
A: 6.9 °C

Q: For `O=[N+]([O-])c1cc(C(F)(F)F)cc2c(=S)nc(N3CCC4(CC3)OCCO4)sc12` [SKLB-TB1001, 8-nitro-2-(1,4-dioxa-8-azaspiro[4.5]decan-8-yl)-6-(trifluoromethyl)-4H-benzo[e][1,3]thiazine-4-thione], which ΔTm is on record?
A: 8.0 °C
